The values below come from article PMC9951321, “Combating Escherichia coli O157:H7 with Functionalized Chickpea‐Derived Antimicrobial Peptides” (Advanced Science, 2022).

Converted amounts (≈) assume the structure as drawn. Like-named read-outs stand apart in the source and are kept apart here. Where a SMILES comes first, the peptide text is derived from it. A value given as a limit tells only on which side of the number the result lay.

Assay [1] relates to E. coli O157:H7. The experiment in a line: Gut colonized mouse model, histological evaluation of intestine. Type of assay: in vivo. The conditions noted are these: ICR mice, H&E histology after 7 days; KTA 9.87, KTR 18.95, RI 38.31, RT 24.81, ciprofloxacin 30.18 µmol L^−1.
The subject of assay [2] is E. coli O157:H7. The experiment in a line: Food surface decontamination model (cherry tomatoes). The conditions noted are these: 50 µg mL^−1, 2 mL, 10 min; inoculum around 6.20 log CFU g^−1; limit of detection 1.0 log CFU g^−1; n = 3.
The test system of assay [3] is E. coli O157:H7. The assay can be described thus: LPS binding assay (competitive inhibition of antibacterial activity). The conditions noted are these: purified LPS of E. coli origin, 0.5–1000 µg mL^−1, chequerboard broth microdilution.
Assay [4] concerns Escherichia coli O157:H7 ATCC 35150. As to conditions: for Control (MIC values determined in the absence of proteases): E. coli O157:H7, Table S2 control, no protease.
Assay [5] shares this test system. The experiment in a line: MBC assay. The conditions noted are these: no visible colony on PCA plate after 24 h at 37 °C, triplicate.
In assay [6] the test system is E. coli O157:H7. The assay can be described thus: Time-kill curves. The conditions noted are these: 4 × MIC, stationary phase culture, n = 3.
For assay [7], the system named is E. coli O157:H7. The experiment in a line: Outer membrane permeability, NPN uptake.
Assay [8] deals with E. coli O157:H7. The assay can be described thus: Membrane potential, Rhodamine 123 fluorescence. As to conditions: 1 h treatment.
Assay [9] has as its system Escherichia coli O157:H7 ATCC 35150. The experiment in a line: microbe, parasite or virus in culture. As to conditions: ATCC35150, 24 h.

The term MBC denotes the lowest tested concentration that kills the bacteria rather than only halting them. Higher therefore signals less potent killing. As to `CC[C@H](C)[C@H](NC(=O)[C@@H](N)CCCNC(=N)N)C(=O)N[C@@H](CCCCN)C(=O)N[C@H](C(=O)N[C@@H](C)C(=O)N[C@H](C(=O)N[C@@H](Cc1c[nH]c2ccccc12)C(=O)N[C@@H](CCCNC(=N)N)C(=O)N[C@@H](CC(C)C)C(=O)N[C@@H](C)C(=O)N[C@@H](CC(C)C)C(=O)N[C@@H](CCCNC(=N)N)C(=O)N[C@@H](Cc1c[nH]c2ccccc12)C(=O)N[C@@H](CC(C)C)C(=O)N[C@@H](CCCCN)C(=O)N[C@@H](CC(C)C)C(=O)O)[C@@H](C)O)[C@@H](C)O` [KTA] (H-RIKTATWRLALRWLKL-OH), the “Attenuation of colitis caused by E. coli infection (in words)” value (from here on “Attenuation of colitis caused”) in [1] is listed as “essentially equipotent”. Further, in assay [2], the “E. coli O157:H7 counts on contaminated cherry tomato surface” value is on record as “no detectable bacteria”. Besides, the “Antibacterial activity on addition of exogenous LPS (in words)” value in [3] is reported as “largely abolished”. In assay [4], the “Control (MIC values determined in the absence of proteases)” value (“Control” below) came to 2.5 µM. Also, the minimal bactericidal concentration (MBC) in assay [5] worked out at 9.9 µM (≈ 20.1 µg/mL). In assay [6], the “Time to kill almost all E. coli O157:H7 cells” value is given as at most 6 h. For the same compound, the “Time to saturation of maximum NPN uptake” value in assay [7] (4 × MIC) is on record as “around 6 h”; in [7] (16 × MIC), 4 h. In addition, in assay [8], the “Effect on membrane potential (in words)” value is on record as “hyper‐polarization”.

With `CC[C@H](C)[C@H](NC(=O)[C@@H](N)CCCNC(=N)N)C(=O)N[C@@H](CCCCN)C(=O)N[C@H](C(=O)N[C@@H](CCCNC(=N)N)C(=O)N[C@H](C(=O)N[C@@H](Cc1c[nH]c2ccccc12)C(=O)N[C@@H](CCCNC(=N)N)C(=O)N[C@@H](CC(C)C)C(=O)N[C@@H](C)C(=O)N[C@@H](CC(C)C)C(=O)N[C@@H](CCCNC(=N)N)C(=O)N[C@@H](Cc1c[nH]c2ccccc12)C(=O)N[C@@H](CC(C)C)C(=O)N[C@@H](CCCCN)C(=O)N[C@@H](CC(C)C)C(=O)O)[C@@H](C)O)[C@@H](C)O` [KTR] (H-RIKTRTWRLALRWLKL-OH), in assay [1], the “Attenuation of colitis caused” value is “essentially equipotent”. Further, the “Control” value in [4] worked out at 4.7 µM. The same compound came in with an MBC in assay [5] of 7.1 µM (≈ 15 µg/mL). Besides, the “Time to kill almost all E. coli O157:H7 cells” value in [6] was at most 4 h. Further, the “Effect on membrane potential (in words)” value in assay [8] is reported as “depolarized”.

For `CC[C@H](C)[C@H](NC(=O)CN)C(=O)NCC(=O)N[C@@H](C)C(=O)N[C@H](C(=O)N[C@@H](CC(C)C)C(=O)N[C@@H](CCCCN)C(=O)N[C@H](C(=O)N[C@@H](CC(C)C)C(=O)N[C@H](C(=O)N[C@H](C(=O)NCC(=O)N[C@@H](CC(C)C)C(=O)N1CCC[C@H]1C(=O)N[C@@H](C)C(=O)N[C@@H](CC(C)C)C(=O)N[C@H](C(=O)N[C@@H](CO)C(=O)N[C@@H](Cc1c[nH]c2ccccc12)C(=O)N[C@H](C(=O)N[C@@H](CCCCN)C(=O)N[C@@H](CCCNC(=N)N)C(=O)N[C@@H](CCCCN)C(=O)N[C@@H](CCCNC(=N)N)C(=O)N[C@@H](CCC(N)=O)C(=O)N[C@@H](CCC(N)=O)C(N)=O)[C@@H](C)CC)[C@@H](C)CC)[C@@H](C)O)[C@@H](C)O)C(C)C)C(C)C` [Melittin, reference compound], the “Control” value in assay [4] came out at 12.5 µM.

Take `CC[C@H](C)[C@H](NC(=O)[C@@H](N)CCCNC(=N)N)C(=O)N[C@@H](CCCCN)C(=O)N[C@@H](CCCNC(=N)N)C(=O)N[C@@H](CC(C)C)C(=O)N[C@@H](C)C(=O)N[C@@H](CC(C)C)C(=O)N[C@@H](CCCNC(=N)N)C(=O)N[C@@H](Cc1c[nH]c2ccccc12)C(=O)N[C@@H](CC(C)C)C(=O)N[C@@H](CCCCN)C(=O)N[C@@H](CC(C)C)C(=O)O` [RI] (H-RIKRLALRWLKL-OH): the “Attenuation of colitis caused” value in [1] was “essentially equipotent”. For the same compound, the “Control” value in [4] came to 9.6 µM.

As for `CC(C)C[C@H](NC(=O)[C@H](CCCCN)NC(=O)[C@H](CC(C)C)NC(=O)[C@H](Cc1c[nH]c2ccccc12)NC(=O)[C@H](CCCNC(=N)N)NC(=O)[C@H](CC(C)C)NC(=O)[C@H](C)NC(=O)[C@H](CC(C)C)NC(=O)[C@H](CCCNC(=N)N)NC(=O)[C@H](Cc1c[nH]c2ccccc12)NC(=O)[C@@H](NC(=O)[C@@H](N)CCCNC(=N)N)[C@@H](C)O)C(=O)O` [RT] (H-RTWRLALRWLKL-OH), the “Attenuation of colitis caused” value in [1] is recorded as “slightly less active”. The “Control” value in assay [4] worked out at 6.2 µM.

In the case of `NC[C@H]1O[C@H](O[C@H]2[C@H](O)[C@@H](O[C@H]3O[C@H](CO)[C@@H](O)[C@H](N)[C@H]3O)[C@H](N)C[C@@H]2N)[C@H](N)C[C@@H]1O` [Tob, tobramycin], the MIC in [9] came out at 8.6 µM (≈ 4.02 µg/mL).

For `O=C(O)c1cn(C2CC2)c2cc(N3CCNCC3)c(F)cc2c1=O` [ciprofloxacin, reference compound], the “Attenuation of colitis caused” value in [1] is “essentially equipotent”.

On to colistin, for which the MIC in assay [4] (Escherichia coli O157:H7 ATCC 35150, broth micro-dilution in MHB, 37 °C, 24 h, read by eye, triplicate) was found to be 3.2 µM.
